# ChEMBL document CHEMBL3045492, “Regioselective synthesis of novel 3-alkoxy (phenyl) thiophosphorylamido-2-(per-O-acetylglycosyl-1'-imino)thiazolidine-4-one derivatives from O-alkyl N4-glycosyl(thiosemicarbazido)phosphonothioates” (2009)
# How the values were obtained:
# [1] = system: Botryosphaeria berengeriana; experiment: Growth inhibition of Botryosphaeria berengeriana at 50 ppm relative to control
# [2] = system: Phomopsis asparagi; experiment: Growth inhibition of Phomopsis asparagi at 50 ppm relative to control
Compound,growth inhibition (GI) [1],growth inhibition (GI) [2]
COP(=S)(NNC(=S)N[C@@H]1O[C@H](COC(C)=O)[C@H](OC(C)=O)[C@H](OC(C)=O)[C@H]1OC(C)=O)c1ccccc1 (some centres not stated),Active,Active
COP(=S)(NNC(=S)N[C@@H]1O[C@H](COC(C)=O)[C@@H](OC(C)=O)[C@H](OC(C)=O)[C@H]1OC(C)=O)c1ccccc1 (some centres not stated),Active,Active
CCOP(=S)(NNC(=S)N[C@@H]1O[C@H](COC(C)=O)[C@@H](O[C@@H]2O[C@H](CC(C)=O)[C@H](OC(C)=O)[C@H](OC(C)=O)[C@H]2OC(C)=O)[C@H](OC(C)=O)[C@H]1OC(C)=O)OCC,Active,Active
CCOP(=S)(NNC(=S)N[C@@H]1OC[C@@H](OC(C)=O)[C@H](OC(C)=O)[C@H]1OC(C)=O)c1ccccc1 (some centres not stated),Active,Active
COP(=S)(NNC(=S)N[C@@H]1OC[C@@H](OC(C)=O)[C@H](OC(C)=O)[C@H]1OC(C)=O)OC,Active,Active
CCOP(=S)(NNC(=S)N[C@@H]1O[C@H](COC(C)=O)[C@@H](O[C@H]2O[C@H](CC(C)=O)[C@@H](OC(C)=O)[C@H](OC(C)=O)[C@H]2OC(C)=O)[C@H](OC(C)=O)[C@H]1OC(C)=O)OCC,Active,Active
COP(=S)(NNC(=S)N[C@@H]1OC[C@@H](OC(C)=O)[C@H](OC(C)=O)[C@H]1OC(C)=O)c1ccccc1 (some centres not stated),Active,Active
CCOP(=S)(NNC(=S)N[C@@H]1OC[C@@H](OC(C)=O)[C@H](OC(C)=O)[C@H]1OC(C)=O)OCC,Active,Active
CCOP(=S)(NNC(=S)N[C@@H]1O[C@H](COC(C)=O)[C@@H](OC(C)=O)[C@H](OC(C)=O)[C@H]1OC(C)=O)OCC,Active,Active
CCCOP(=S)(NNC(=S)N[C@@H]1O[C@H](COC(C)=O)[C@@H](OC(C)=O)[C@H](OC(C)=O)[C@H]1OC(C)=O)c1ccccc1 (some centres not stated),Active,Active
CCOP(=S)(NNC(=S)N[C@@H]1O[C@H](COC(C)=O)[C@H](OC(C)=O)[C@H](OC(C)=O)[C@H]1OC(C)=O)OCC,Active,Active

# Active and inactive are the calls of the source. The rule behind the calls is not given here.
